The values that follow come from patent US11279728B2, “Broad spectrum viral inhibitor” (Albert Einstein College of Medicine, priority 2017, dated 2022).

The series relates to HEK293T cells. Briefly: Intracellular ddhCTP in HEK293T cells transfected with Hs viperin / Hs CMPK2 (LC/MS).

In the case of `Nc1ccn([C@@H]2OC(COP(=O)(O)OP(=O)(O)OP(=O)(O)O)=C[C@@H]2O)c(=O)n1` (stereo in doubt) [ddhCTP, 3′-deoxy-3′,4′-didehydro-cytidine triphosphate], the “intracellular ddhCTP level” value reads like this: (HEK293T cotransfected with viperin and CMPK2 plasmids, 48 h) roughly 330 µM; (HEK293T transfected with Hs viperin plasmid, 16-h post transfection) roughly 75 µM; (HEK293T transfected with Hs viperin plasmid, after 72 h) roughly 35 µM.
